We go through 12 molecules from the supplement of paper PMC9931576.

First the molecules themselves.
B1: BD55-6633 (protein)
chain 1: EVQLLQSGAEVKKPGESLTISCKGSGYTFTSYWIGWVRQMPGKGLEFMGRIDPSDSYADYSPSFQGHVSISADRSSSTAYLQWSGLKASDTAMYYCATTTKGGYGSREMYGVDVWGQGTTVIVSS
chain 2: DIQVTQSPSSVSASVGDRVTISCRASQGISSWLAWYQQKPGKAPKLLIYAASSLQIGVPSRFSGSGSGTDFTLTISSLQPEDFATYYCQQAKSFPYTFGQGTKLEIK
B2: BD55-6616 (protein)
chain 1: QVQLVQSGSELKKPGASVKVSCKASGYTFTNYAMHWVRQAPGQGLEWMGWINTNTGNPTYGQGFTGRFVFSLDTSVSTAYLQISSLKAEDTAVYYCARADRNYYGYEASDIWGQGTMVIVSS
chain 2: DIQMTQSPSSLSASVGDRVTITCRASQSISNYLNWYQQKPGKAPNLLIYAASSLQSGVPSRFTGSGSGTDFTLTISSLQPEDFATYYCQQSYSSHLFTFGGGTKVEI
B3: BD55-6634 (protein)
chain 1: QVQLVQSGAEVKKPGSSVKVSCKASGDTFDTKTFNWVRQAPGQGLEWMGRIIPTLGRTDYAQKFQGRVTITADTSTSTAYMELSSLRSEDTAVYYCARVNTEWQRSFDFWGQGTLITVSS
chain 2: DIVMTQSPLSLPVTPGEPASISCRSSQSLLHTNGHNYLDWYLQKPGQSPRLLIYLGSYRASGVPDRFSGSGSGTYFTLKISRVEAEDLGVYFCMQGLQSYTFGQGTKLEI
B4: BD55-6617 (protein)
chain 1: QVQLQQSGPGLVRPSGTLSLTCAVSGASVTSTDWWNWVRQSPKKGLEWIGEIYHNGGTNYNPSLKSRVTISIDTSKNQFSLKLASVTAADTAVYYCATAAGETHYYPMGSYSPFDNWGQGALVTVSS
chain 2: DIVMTQSPDSLAVSLGERATINCKSSQSVLYSSNNKNYLAWYQQKPGQPPKKLIYWASTRESGVPDRFSGSGSGTDFTLTISSLQAEDVAVYYCQQYFHSPRAFGQGTRLEIK
B5: BD55-6623 (protein)
chain 1: EVQLVESGGGLVQPGRSLRLSCAASGFIFGDYGMHWVRQGPGKGLEWVSGISWNGGVKDYADSVKGRFTISRDNAKNSLYLQMNSLRIEDSALYYCARDPFSWGGIASAGVDYWGHGALVTVSS
chain 2: NFMLTQPHSVSESPGKTVTISCTRSSGSIASNNVQWYQQRPGSSPTTVIYEDKKRPSGVPDRFSGFVDRSSNSASLSISGLKTEDEADYYCQSYDTSSNHGAWVFGGGTKLTVL
B6: BD55-6581 (protein)
chain 1: EVQLVESGGGLVQPGRSLRLSCVASGFIFSGNDLHWVRQAPGKGLEWISYISPNEYVIYYADSVKGRFTISRDDAKNSLSLQMNSLGAEDTGVYYCASGTGAHMITFGGVMTYWGQGILVTVSS
chain 2: QSVLTQPPSVSAAPGQKVTISCSGSSSNIGHGSVSWYQQLPGTAPKLLIFDSQRRPSGIPDRFSGSRSGTSATLDITGLQTGDEADYYCGTWDSSLSGVVFGGGTKLTVL
B7: BD55-1275 (protein)
chain 1: QVQLVQSGAEVKKPGASVKVSCKASGYSFSSYYVHWVRQAPGQGLEWMGLINPSGASTRYAQKFQGTVTMTRDTSTSTVFMELSSLRSEDTAIYYCARAKIVPATDYFDYWGQGTLVTVSS
chain 2: SYVLTQPPSVSVAPGQTARITCGANNIGSKNVHWYQQKPGQAPVLVVFDDSDRPSGIPERFSGSNSGNTATLTISRVEAGDEADYYCHLWDGSSVPLYVFGTGTKVTVL
B8: BD55-6612 (protein)
chain 1: QVQLVQSGAEVKKPGASVKISCKVSGYSFTAYYMHWVRQAPGQGLEWMGWINPDSGGTKYAQKFQGRVTMTRDTSSSTAYMELRRLRSDDTAVFYCARGPAVTAMQYFYYYGMDVWGQGTTVTVSS
chain 2: SYELTQPPSVSVSPGQTARITCSGDALPNQYSYWYHQKPGQVPVLVIYKDNERPSGIPERFSGSRSGTTVTLTISGVQSEDEADYYCQSVDSSASWVFGGGTKLTVL
B9: BD55-6586 (protein)
chain 1: EVQLLESGGGLVQPGGSLRLSCAASGLIFSTYAMNWVRQAPGKGLEWVSGISGSGGSSYHADSVKARFTISRDNSKNTLYLQMNSLRAEDTAVYYCAKFDSSSFLENYYYYYMDVWGKGTTVTVSS
chain 2: SSELTQSPSVSVSSGQTATITCSGDKLGDKSASWYQQKPGQSPVLIIYHDAKRPSGISERFSGSNSGNTATLTITGTQTLDEADYYCQAWNSNTGLVVFGGGTKLTVL
B10: BD55-6600 (protein)
chain 1: QVQLVQSGAEVKKPGASVKVSCKASGYTFIGYYMHWVRQAPGQGLEWMGWVNPNSGDTQYKQKFQGRVTVTRDTSINTVYMDLSRLRSDDTAVYYCAREQKVVRGVWSYYGLDFWGQGTTVTVSS
chain 2: QSVLTQPPSASGTPGQRVTISCSGSSSNIGGNTVNWYQQLPGTAPKLLIYRNNQRPSGVPDRFSGSKSGTSASLAISGLQSEDEADYYCEARDDSLNSVVFGGGTKLTVL
B11: BD55-6611 (protein)
chain 1: EVQLVESGGGLVQPGGSLRLSCAASGFTFSAYAMHWVRQAPGKGLEYVSAITSDGGGTFYADSVKGRFTISRDNSRNTLFLQMGSLRAEDMAVYYCAREGIYSYGLYFDYWGQGSLVTVSS
chain 2: DIQMTQSPSSLSASVGDRISITCRASQSISNYLNWYQQKPGKAPKLLIYAASSLQSGVPSRFSGSGSGTDFTLTISSLQPEDFATYYCQQSYLTPMYSFGQGTKLEFK
B12: BD55-6624 (protein)
chain 1: QVQLVESGGGVVQPGKSLRLSCTASGLTFRHYGFHWVRQAPGKGLEWVAVISYDGNDKYYAVSVKGRFTISRDDSKSTLYLQMNNLRPEDTAMYYCAKIDSPYCSASHCYSAVVDYWGQGTLVTVSS
chain 2: DIQMTQSPSSLSASVGDRVTITCRASQTINTFLNWYQQRPGKAPKLLIYSASTLQSGVSSRFSGSGSGTDFTLTITSLQPEDFATFYCQQSYSPPFTFGPGTKVDV

Human monoclonal antibodies against the spike receptor-binding domain (heavy:light variable regions). IC50 against pseudoviruses bearing the spike of naturally observed variants; lower = stronger; >10 µg/ml means not reached at the top dose. No active / inactive call. The stated detection limit is 0.0005 µg/ml; values near or below 0.001 µg/ml lie at the floor of the assay.

One assay addresses SARS-CoV-2 Omicron BA.1 spike pseudovirus. Description: pseudovirus neutralization IC50; higher = weaker neutralization. The method, then: (§1)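 Single-round VSV luciferase pseudovirus mixed with antibody dilutions for 1 h and put on Huh-7 cells for about a day; IC50 from the dose curve.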
As to B1, the “pseudovirus neutralization IC50” value was greater than 10 mg/L.

With B2, the “pseudovirus neutralization IC50” value was greater than 10 mg/L.

As for B3, the “pseudovirus neutralization IC50” value was greater than 10 mg/L.

On to B4, for which the “pseudovirus neutralization IC50” value was greater than 10 mg/L.

Regarding B5, the “pseudovirus neutralization IC50” value amounted to 3.13 mg/L.

Turning to B6, the “pseudovirus neutralization IC50” value was greater than 10 mg/L.

As for B7, the “pseudovirus neutralization IC50” value was greater than 10 mg/L.

Take B8: the “pseudovirus neutralization IC50” value is greater than 10 mg/L.

As for B9, the “pseudovirus neutralization IC50” value is greater than 10 mg/L.

Consider B10, for which the “pseudovirus neutralization IC50” value is greater than 10 mg/L.

As to B11, the “pseudovirus neutralization IC50” value is greater than 10 mg/L.

As to B12, the “pseudovirus neutralization IC50” value was greater than 10 mg/L.

In a further assay the target is SARS-CoV-2 Omicron BA.2 spike pseudovirus. The description is as above. The protocol: as §1
Turning to B1, the “pseudovirus neutralization IC50” value is greater than 10 mg/L.

On to B2, for which the “pseudovirus neutralization IC50” value was greater than 10 mg/L.

For B3, the “pseudovirus neutralization IC50” value is greater than 10 mg/L.

With B4, the “pseudovirus neutralization IC50” value is greater than 10 mg/L.

In the case of B5, the “pseudovirus neutralization IC50” value was greater than 10 mg/L.

As for B6, the “pseudovirus neutralization IC50” value is greater than 10 mg/L.

For B7, the “pseudovirus neutralization IC50” value was greater than 10 mg/L.

As for B8, the “pseudovirus neutralization IC50” value is greater than 10 mg/L.

As for B9, the “pseudovirus neutralization IC50” value was greater than 10 mg/L.

As for B10, the “pseudovirus neutralization IC50” value is greater than 10 mg/L.

As for B11, the “pseudovirus neutralization IC50” value was greater than 10 mg/L.

Turning to B12, the “pseudovirus neutralization IC50” value is greater than 10 mg/L.

For another assay, the target named is SARS-CoV-2 Omicron BA.2.75 spike pseudovirus. The description is as above. The method, then:
as §1
For the molecule B1, the “pseudovirus neutralization IC50” value is greater than 10 mg/L.

Turning to B2, the “pseudovirus neutralization IC50” value was greater than 10 mg/L.

As to B3, the “pseudovirus neutralization IC50” value is greater than 10 mg/L.

With B4, the “pseudovirus neutralization IC50” value was greater than 10 mg/L.

As to B5, the “pseudovirus neutralization IC50” value is greater than 10 mg/L.

Regarding B6, the “pseudovirus neutralization IC50” value was greater than 10 mg/L.

As to B7, the “pseudovirus neutralization IC50” value was greater than 10 mg/L.

For the molecule B8, the “pseudovirus neutralization IC50” value was greater than 10 mg/L.

B9: the “pseudovirus neutralization IC50” value was greater than 10 mg/L.

With B10, the “pseudovirus neutralization IC50” value is greater than 10 mg/L.

For B11, the “pseudovirus neutralization IC50” value was greater than 10 mg/L.

Consider B12, for which the “pseudovirus neutralization IC50” value is greater than 10 mg/L.

The next assay deals with SARS-CoV-2 Omicron BA.5 spike pseudovirus. The description is as above. The protocol: as §1
On to B1, for which the “pseudovirus neutralization IC50” value is greater than 10 mg/L.

On to B2, for which the “pseudovirus neutralization IC50” value was greater than 10 mg/L.

Take B3: the “pseudovirus neutralization IC50” value is greater than 10 mg/L.

In the case of B4, the “pseudovirus neutralization IC50” value was greater than 10 mg/L.

For the molecule B5, the “pseudovirus neutralization IC50” value is greater than 10 mg/L.

With B6, the “pseudovirus neutralization IC50” value is greater than 10 mg/L.

For the molecule B7, the “pseudovirus neutralization IC50” value was greater than 10 mg/L.

In the case of B8, the “pseudovirus neutralization IC50” value was greater than 10 mg/L.

On to B9, for which the “pseudovirus neutralization IC50” value was greater than 10 mg/L.

Turning to B10, the “pseudovirus neutralization IC50” value is greater than 10 mg/L.

As for B11, the “pseudovirus neutralization IC50” value was greater than 10 mg/L.

With B12, the “pseudovirus neutralization IC50” value is greater than 10 mg/L.

A further assay deals with SARS-CoV-2 Omicron BQ.1.1 spike pseudovirus. The description is as above. The method, then: as §1
Regarding B1, the “pseudovirus neutralization IC50” value was greater than 10 mg/L.

Consider B2, for which the “pseudovirus neutralization IC50” value was greater than 10 mg/L.

For B3, the “pseudovirus neutralization IC50” value was greater than 10 mg/L.

In the case of B4, the “pseudovirus neutralization IC50” value is greater than 10 mg/L.

In the case of B5, the “pseudovirus neutralization IC50” value was greater than 10 mg/L.

For the molecule B6, the “pseudovirus neutralization IC50” value is greater than 10 mg/L.

For B7, the “pseudovirus neutralization IC50” value was greater than 10 mg/L.

As to B8, the “pseudovirus neutralization IC50” value is greater than 10 mg/L.

For the molecule B9, the “pseudovirus neutralization IC50” value is greater than 10 mg/L.

On to B10, for which the “pseudovirus neutralization IC50” value was greater than 10 mg/L.

Regarding B11, the “pseudovirus neutralization IC50” value was greater than 10 mg/L.

Consider B12, for which the “pseudovirus neutralization IC50” value was greater than 10 mg/L.

The target in another assay is SARS-CoV-2 Omicron XBB spike pseudovirus. The description is as above. The method, then:
as §1
Take B1: the “pseudovirus neutralization IC50” value was greater than 10 mg/L.

Consider B2, for which the “pseudovirus neutralization IC50” value is greater than 10 mg/L.

Take B3: the “pseudovirus neutralization IC50” value was greater than 10 mg/L.

For the molecule B4, the “pseudovirus neutralization IC50” value is greater than 10 mg/L.

Consider B5, for which the “pseudovirus neutralization IC50” value was greater than 10 mg/L.

Take B6: the “pseudovirus neutralization IC50” value is greater than 10 mg/L.

On to B7, for which the “pseudovirus neutralization IC50” value is greater than 10 mg/L.

Regarding B8, the “pseudovirus neutralization IC50” value was greater than 10 mg/L.

Take B9: the “pseudovirus neutralization IC50” value is greater than 10 mg/L.

With B10, the “pseudovirus neutralization IC50” value is greater than 10 mg/L.

In the case of B11, the “pseudovirus neutralization IC50” value is greater than 10 mg/L.

On to B12, for which the “pseudovirus neutralization IC50” value was greater than 10 mg/L.

The next assay addresses SARS-CoV-2 early D614G spike pseudovirus. The description is as above. The protocol:
as §1
Regarding B1, the “pseudovirus neutralization IC50” value was greater than 10 mg/L.

B2: the “pseudovirus neutralization IC50” value was greater than 10 mg/L.

Consider B3, for which the “pseudovirus neutralization IC50” value is greater than 10 mg/L.

As for B4, the “pseudovirus neutralization IC50” value is greater than 10 mg/L.

In the case of B5, the “pseudovirus neutralization IC50” value is 0.072 mg/L.

Regarding B6, the “pseudovirus neutralization IC50” value is greater than 10 mg/L.

For the molecule B7, the “pseudovirus neutralization IC50” value is greater than 10 mg/L.

Turning to B8, the “pseudovirus neutralization IC50” value was greater than 10 mg/L.

With B9, the “pseudovirus neutralization IC50” value is greater than 10 mg/L.

As for B10, the “pseudovirus neutralization IC50” value was greater than 10 mg/L.

Consider B11, for which the “pseudovirus neutralization IC50” value was greater than 10 mg/L.

Take B12: the “pseudovirus neutralization IC50” value is greater than 10 mg/L.
